Anti-infective test results gathered from many reports (values: NIAID ChemDB through PubChem).

Shared fields: tests in culture; agent: Candida albicans

Lines come from different laboratories, so protocols vary. Blank or dashed fields: not listed here. MIC50, MIC90 and the like: level of inhibition, or share of isolates inhibited. ECn is the concentration giving n% inhibition of infection, replication or growth.

SMILES	strain	measure	method	value
C[C@H]1[C@@H](Oc2ccc(S)cc2)O[C@@H]2O[C@]3(C)CC[C@H]4[C@H](C)CC[C@@H]1C24OO3	ATCC 90028	EC50	-	>50 µg/mL
O=C1Nc2ccc(F)cc2C1=Nc1cccc(Cc2cccc(N=C3C(=O)Nc4ccc(F)cc43)c2)c1	CIP 1180-79	MIC	-	<50 µg/mL
O=C1C(=O)N(c2ccccc2)C(=S)N1c1ccccc1	CA10	MIC	-	>100 µg/mL
Cc1c(N2CCC[C@@H]2CN)c(F)cn2c(=O)c(C(=O)O)cc(C3CC3)c12	CCH442	MIC	-	>100 µg/mL
Cc1ccc2ccc(=O)oc2c1	ATCC 14053	MIC	-	1000 µg/mL
COc1cc(O)c(C(C)=O)c(OC)c1	ICB 12	MIC	-	125 µg/mL
C[C@@H]1[C@H](O)[C@@H](C)/C=C/C=C/CC/C=C/C=C/C=C/C=C/C(O[C@H]2O[C@H](C)[C@@H](O)[C@H](N)[C@@H]2O)CC2O[C@](O)(CC(O)C(O)CCC(O)CC(O)CC(O)CC(=O)O[C@H]1C)CC(O)C2C(=O)O	ATCC 18804	MIC50	broth dilution	>269 µM
N#CC1=C(N)Oc2c(c(=O)oc3ccccc23)C1c1cc2ccccc2nc1Oc1ccccc1	MTCC 227	MIC	-	250 µg/mL
C[C@H](Cc1ccc(O)c(O)c1)[C@@H](C)Cc1ccc(O)c(O)c1	CCC 129-2000	MIC100	broth dilution	250 µg/mL
COCOCC1CCCN(c2c(F)cn3c(=O)c(C(=O)O)cc(C4CC4)c3c2C)C1.Cl	CCH442	MIC	-	>100 µg/mL
Cc1ccc(C2OC(=O)/C(=C/c3ccc(O)c(O)c3)C2C(=O)O)cc1O	ATCC 10231	MIC	-	>100 µg/mL
Cc1ccc2oc(=O)c3c(c2c1)OC(N)=C(C#N)C3c1cc2ccccc2nc1Oc1ccc(Cl)cc1	MTCC 227	MIC	-	500 µg/mL
Cc1c(-c2ccccc2)c(=O)oc2ccc(-c3cc(-c4ccccc4)c4c(n3)-c3ccccc3CC4)cc12	MTCC 227	MIC	broth dilution / turbidity	>1000 µg/mL
O=C1Nc2ccccc2C1=Nc1ccc(C(=O)c2ccc(N=C3C(=O)Nc4ccccc43)cc2)cc1	CIP 1180-79	MIC	-	<50 µg/mL
Cc1ccc2nc(Sc3ccc(Cl)cc3)c(C3C(C#N)=C(N)Oc4cc(C)oc(=O)c43)cc2c1	MTCC 227	MIC	broth dilution	200 µg/mL
OC(Cn1cncn1)(Cn1cncn1)c1ccc(F)cc1F	SC5314	MIC	resazurin	0.31 µg/mL
C/C(=N\NC(=O)c1ccc(Cl)cc1)c1ccc(-n2ccnc2)cc1	ATCC 18804	MIC50	broth dilution	>737.9 µM
CCN1C(=O)C(=O)N(CC)C1=S	CA10	MIC	-	>100 µg/mL
OC(Cn1cncn1)(Cn1cncn1)c1ccc(F)cc1F	YL 346	MIC	broth dilution	>512 µg/mL
CN[C@@H]1[C@H](O)[C@@H](O)[C@H](O[C@H]2c3cc(C)c(C(=O)N[C@H](C)C(=O)O)c(O)c3-c3c(cc4c(c3O)C(=O)c3cc(OC)cc(O)c3C4=O)[C@@H]2O)O[C@@H]1C	A9540	MIC	-	3.1 µg/mL
Cc1c(-c2ccccc2)c(=O)oc2ccc(-c3cc(-c4ccc(Cl)cc4)c4c(n3)-c3ccccc3CC4)cc12	MTCC 227	MIC	broth dilution / turbidity	1000 µg/mL
COC(=O)[C@@H](CO)NC(=O)c1c(C)cc2c(c1O)-c1c(cc3c(c1O)C(=O)c1cc(OC)cc(O)c1C3=O)[C@H](O)[C@H]2O[C@@H]1O[C@H](C)[C@H](N(C)C)[C@H](O[C@@H]2OC[C@@H](O)[C@H](O)[C@H]2O)[C@H]1O	A9540	MIC	-	>100 µg/mL
CC[n+]1c2ccccc2cc2[nH]c3ccccc3c21	B311	MIC	-	250 µg/mL
Cc1ccc2oc(=O)c3c(c2c1)OC(N)=C(C#N)C3c1cc2ccccc2nc1Oc1ccccc1	MTCC 227	MIC	-	>1000 µg/mL
CO[C@H]1O[C@@H]2O[C@@]3(C)CC[C@H]4[C@H](C)CC[C@@H]([C@H]1C)[C@@]24OO3	ATCC 90028	EC50	-	>50 µg/mL
N#CC1=C(N)Oc2c(c(=O)oc3ccccc23)C1c1cc2ccccc2nc1Oc1ccc(Cl)cc1	MTCC 227	MIC	-	250 µg/mL
CC1=C(N2CC3(CC(N)C3)C2)C(F)=CN2C(=O)C(C(=O)O)=CC(C3CC3)C12	CCH442	MIC	-	>100 µg/mL
C=C(C)c1cc2c(ccc3ccc(=O)oc32)o1	ATCC 14053	MIC	-	500 µg/mL
CC1=C(N2CCCC(C3CCCCN3)C2)C(F)=CN2C(=O)C(C(=O)O)=CC(C3CC3)C12	CCH442	MIC	-	<100 µg/mL
CN[C@@H]1[C@H](O[C@@H]2OC[C@@H](O)[C@H](O)[C@H]2O)[C@@H](O)[C@H](O[C@H]2c3cc(C)c(C(=O)N[C@H](C)C(=O)O)c(O)c3-c3c(cc4c(c3O)C(=O)c3cc(OC)cc(O)c3C4=O)[C@@H]2O)O[C@@H]1C	A9540	MIC	-	3.1 µg/mL
O=C1Nc2ccccc2C1=Nc1ccc(Cc2cccc(N=C3C(=O)Nc4ccccc43)c2)cc1	CIP 1180-79	MIC	-	<50 µg/mL
c1ccc(CC[n+]2c3ccccc3cc3[nH]c4ccccc4c32)cc1	B311	MIC	-	250 µg/mL
Cc1c(N2C[C@@H]3CCCN[C@@H]3C2)c(F)cn2c(=O)c(C(=O)O)cc(C3CC3)c12	CCH442	MIC	-	>100 µg/mL
COc1ccc2nc(Sc3ccc(Cl)cc3)c(C3C(C#N)=C(N)Oc4c3c(=O)oc3ccccc43)cc2c1	MTCC 227	MIC	broth dilution	500 µg/mL
CC[C@H](NC)C1CCN(c2c(F)cn3c(=O)c(C(=O)O)cc(C4CC4)c3c2C)C1	CCH442	MIC	-	100 µg/mL
CCN1C(=O)C(=O)N(CC)C1=[Se]	CA10	MIC	-	3 µg/mL
COc1cc2ccc(=O)oc2cc1OC	ATCC 14053	MIC	-	500 µg/mL
c1ccc(-c2ccc(C(c3ccccc3)n3ccnc3)cc2)cc1	81 strains	MIC	-	3.51 µg/mL
O=C(N/N=C\n1ccnc1)c1ccc([N+](=O)[O-])cc1	ATCC 18804	MIC50	broth dilution	>964.4 µM
Cc1ccc2oc(=O)ccc2c1	ATCC 14053	MIC	-	500 µg/mL
C[C@H]1[C@H](O)[C@@H](C)/C=C/C=C/C=C/C=C/C=C/C=C/C=C/[C@H](O[C@@H]2O[C@H](C)[C@@H](O)[C@H](N)[C@@H]2O)C[C@@H]2O[C@](O)(C[C@@H](O)C[C@@H](O)CC[C@H](O)[C@@H](O)C[C@@H](O)CC(=O)O[C@H]1C)C[C@H](O)[C@H]2C(=O)O	4054 strains (fluconazole-susceptible)	MIC90	-	1 µg/mL
CC(=O)O.Cc1c(N2CCCNCC2)c(F)cn2c(=O)c(C(=O)O)cc(C3CC3)c12	CCH442	MIC	-	>100 µg/mL
C=C(C)C1OC1c1c(OC)ccc2ccc(=O)oc12	ATCC 14053	MIC	-	500 µg/mL
CC(=O)N/N=C/c1cnc[nH]1	ATCC 18804	MIC50	broth dilution	>1643 µM
O=C1Nc2ccc(F)cc2C1=Nc1ccc(Oc2ccc(N=C3C(=O)Nc4ccc(F)cc43)cc2)cc1	CIP 1180-79	MIC	-	<50 µg/mL
C=CC[n+]1c2ccccc2cc2[nH]c3ccccc3c21	B311	MIC	-	250 µg/mL
CCC(C)n1ncn(-c2ccc(N3CCN(c4ccc(OC[C@H]5CO[C@](Cn6cncn6)(c6ccc(Cl)cc6Cl)O5)cc4)CC3)cc2)c1=O	4054 strains (fluconazole-susceptible)	MIC90	-	0.12 µg/mL
CC1=C(N2CCC(C(=O)O)C2)C(F)=CN2C(=O)C(C(=O)O)=CC(C3CC3)C12	CCH442	MIC	-	>100 µg/mL
C/C(=N\NC(N)=S)c1ccc(-n2ccnc2)cc1	ATCC 18804	MIC50	broth dilution	>964 µM
COc1ccc2nc(Oc3ccccc3)c(C3C(C#N)=C(N)Oc4c3c(=O)oc3ccc(C)cc43)cc2c1	MTCC 227	MIC	-	100 µg/mL
CCC(C)CC(C)CCCCCCCCC(=O)N[C@H]1C[C@@H](O)[C@H](NCCN)NC(=O)[C@@H]2[C@@H](O)CCN2C(=O)[C@H]([C@H](O)CCN)NC(=O)[C@H]([C@H](O)[C@@H](O)c2ccc(O)cc2)NC(=O)[C@@H]2C[C@@H](O)CN2C(=O)[C@H]([C@@H](C)O)NC1=O	DSY3987	MIC	resazurin	0.63 µg/mL
Cc1c(N2CCCC(C(N)=O)C2)c(F)cn2c(=O)c(C(=O)O)cc(C3CC3)c12	CCH442	MIC	-	>100 µg/mL
C[C@H]1[C@@H](OC2CCC(O)CC2)O[C@@H]2O[C@]3(C)CC[C@H]4[C@H](C)CC[C@@H]1C24OO3	ATCC 90028	MIC	-	>50 µg/mL
COc1ccc(-c2cc(-c3ccc4oc(=O)c(-c5ccccc5)c(C)c4c3)nc3c2Cc2ccccc2-3)cc1OC	MTCC 227	MIC	broth dilution / turbidity	250 µg/mL
Cc1ccc2nc(Oc3ccc(Cl)cc3)c(C3C(C#N)=C(N)Oc4c3c(=O)oc3ccc(C)cc43)cc2c1	MTCC 227	MIC	-	250 µg/mL
O=C(N/N=C/c1ccc(-n2ccnc2)cc1)c1ccc([N+](=O)[O-])cc1	ATCC 18804	MIC50	broth dilution	>745.6 µM
Cc1ccc2nc(Sc3ccc(Cl)cc3)c(C3C(C#N)=C(N)Oc4c3c(=O)oc3ccc(C)cc43)cc2c1	MTCC 227	MIC	broth dilution	500 µg/mL
COc1cc(OC)c(OC)cc1C=O	ATCC 90028	MIC50	broth dilution	1000 µg/mL
C/C(=N\NC(=O)c1ccccc1)c1ccc(-n2ccnc2)cc1	ATCC 18804	MIC50	broth dilution	>821.4 µM
CC1(C)NC(=S)NC1=S	CA10	MIC	-	>100 µg/mL
C=C1C(=O)O[C@@H]2O[C@]3(C)CC[C@H]4[C@H](C)CC[C@@H]1C24OO3	ATCC 90028	MIC	-	>50 µg/mL
CCCCCCCCCCCCCC(=O)O[C@@H]1[C@@H](C)[C@@]2(O)[C@@H](C=C(CO)C[C@]3(O)C(=O)C(C)=C[C@@H]23)[C@@H]2C(C)(C)[C@]12OC(C)=O	ATCC 44859	MIC	-	16 µg/mL
O=C1C(=Nc2ccc(Cc3ccc(N=C4C(=O)N(Cc5ccccc5)c5ccccc54)cc3)cc2)c2ccccc2N1Cc1ccccc1	CIP 1180-79	MIC	-	<50 µg/mL
COc1ccc(-c2cc(-c3ccc4oc(=O)c(-c5ccccc5)c(C)c4c3)nc3c2Cc2ccccc2-3)cc1	MTCC 227	MIC	broth dilution / turbidity	>1000 µg/mL
Cc1c(N=C2C(=O)Nc3ccccc32)cccc1N=C1C(=O)Nc2ccccc21	CIP 1180-79	MIC	-	<100 µg/mL
Cc1ccc2oc(=O)c3c(c2c1)OC(N)=C(C#N)C3c1cc2ccccc2nc1Sc1ccccc1	MTCC 227	MIC	broth dilution	1000 µg/mL

A second listing of 4 rows from above:

SMILES | strain | measure | method | value
O=C1Nc2ccc(F)cc2C1=Nc1cccc(Cc2cccc(N=C3C(=O)Nc4ccc(F)cc43)c2)c1 | CIP 1180-79 | MIC | - | <50 µg/mL
c1ccc(-c2ccc(C(c3ccccc3)n3ccnc3)cc2)cc1 | 81 strains | MIC | - | 3.51 µg/mL
C/C(=N\NC(=O)c1ccc(Cl)cc1)c1ccc(-n2ccnc2)cc1 | ATCC 18804 | MIC50 | broth dilution | >737.9 µM
COc1ccc(-c2cc(-c3ccc4oc(=O)c(-c5ccccc5)c(C)c4c3)nc3c2Cc2ccccc2-3)cc1OC | MTCC 227 | MIC | broth dilution / turbidity | 250 µg/mL